Compound potency records, mixed from different reports. Data source: NIAID ChemDB in PubChem.

All rows: whole-cell or culture tests; agent: Candida albicans

Blank or dashed fields: not listed here. A number after MIC or MFC names an inhibition level or a share of isolates. Lines come from different laboratories, so protocols vary.

| smiles | method | read-out | strain or isolate | value |
|---|---|---|---|---|
| C[C@H](n1cnc2cc3ccccc3cc2c1=O)[C@](O)(Cn1cncn1)c1ccc(F)cc1F | - | MIC | 76 strains | 0.31 µg/mL |
| CC(C)C(=O)CCC[C@H]1CO[C@@](Cn2ccnc2)(c2ccc(F)cc2F)C1 | - | MIC | B02630 | 25 µg/mL |
| CC(=O)N1CCN(c2ccc(OC[C@H]3CO[C@](Cn4ccnc4)(c4ccc(Cl)cc4Cl)O3)cc2)CC1 | - | MIC90 | 50 isolates | 0.01 µg/mL |
| CC(C)C1C[C@H]2C[C@]3(C=O)[C@@H]4CC[C@@H](C)[C@H]4C[C@@]2(CO[C@H]2CN(C4CC4)C[C@@H](C)O2)[C@]13C(=O)O | - | MIC90 | 16 isolates/fluconazole resistant | 0.06 µg/mL |
| CCC(C)n1ncn(-c2ccc(N3CCN(c4ccc(OC[C@H]5CO[C@](Cn6cncn6)(c6ccc(Cl)cc6Cl)O5)cc4)CC3)cc2)c1=O | - | MIC | ATCC 64548 | 0.12 µg/mL |
| C[C@@H](N1CCN(Cc2cn(Cc3ccc(C(F)(F)F)cc3)c3ccccc23)CC1)[C@](O)(Cn1cncn1)c1ccc(F)cc1F | resazurin | MIC80 | ATCC 64548 | 0.125 µg/mL |
| Cc1c(Sc2ccccc2)[n+](=O)c2cc(Cl)ccc2n1[O-] | - | MIC | Clinical isolate 1 | 31.25 µg/mL |
| CCCCCCCCCCOC[N+](C)(C)Cc1cc(N=Nc2ccc(C)cc2)ccc1O | - | MBC | - | 2103 µM |
| CC(C)C(=O)CCC[C@@H]1CO[C@@](Cn2cccc2)(c2ccc(F)cc2F)C1 | - | MIC | CI-2 | >100 µg/mL |
| C[C@H](n1cnc2cc(C(F)(F)F)ccc2c1=O)[C@](O)(Cn1cncn1)c1ccc(F)cc1F | - | MIC | 76 strains | 5 µg/mL |
| CC(/C=C/C=C(\C)C(O)C(C)C(=O)O[C@H]1C[C@@H](C)C=C2C=C[C@]3(C)O[C@@H](O)CC(=O)[C@]3(C)[C@H]21)=C\C=C\C(=O)O | - | MIC | AC3410 | 0.78 µg/mL |
| CCC(C)CC(C)CCCCCCCCC(=O)N[C@H]1C[C@@H](O)[C@H](NCCN)NC(=O)[C@@H]2[C@@H](O)CCN2C(=O)[C@H]([C@H](O)CCN)NC(=O)[C@H]([C@H](O)[C@@H](O)c2ccc(O)cc2)NC(=O)[C@@H]2C[C@@H](O)CN2C(=O)[C@H]([C@@H](C)O)NC1=O | - | MIC | 50 isolates | 0.4 µg/mL |
| C[C@@H](c1nc(-c2ccc(C#N)cc2)cs1)[C@](O)(Cn1cncn1)c1ccc(F)cc1F | - | MIC | 406 strains | ≤0.03 µg/mL |
| CCCCCOc1ccc(-c2ccc(-c3ccc(C(=O)N[C@H]4CCCNC(=O)[C@@H]5C[C@H](NC(=O)CCC(=O)O)CN5C(=O)[C@H]([C@@H](C)O)NC(=O)[C@H](CCc5ccc(O)cc5)NC(=O)[C@@H]5C[C@@H](O)CN5C(=O)[C@H]([C@@H](C)O)NC4=O)cc3)cc2)cc1 | - | MIC | ATCC 62376 | 0.78 µg/mL |
| CCCC(O)C/C=C\C=C\C(=O)OC[C@H]1O[C@@H](O[C@@H]2[C@H](OC(=O)/C=C/C=C/CC(O)/C(C)=C/C=C/CCC(C)CC)[C@@H](O)[C@]3(OCc4cc(O)cc(O)c43)O[C@@H]2CO)[C@H](O)[C@@H](O)[C@H]1O | - | MIC | MY1585 | 2 µg/mL |
| CC(O)Cn1cc(CN2CCN([C@H](C)[C@](O)(Cn3cncn3)c3ccc(F)cc3F)CC2)c2cccc(Cl)c21 | resazurin | MIC80 | ATCC 90028 | 1 µg/mL |
| CN(CCCC#CC(C)(C)C)c1cccc2c1CCC(=O)N2 | - | MIC | Clinical isolate 18 | 7.8 µg/mL |
| C=C=CCN1C[C@H](OC[C@@]23C[C@@H]4[C@H](C)CC[C@H]4[C@@]4(C=O)C[C@@H]2CC(C(C)C)[C@@]34C(=O)O)O[C@H](C)C1 | - | MIC90 | 16 isolates | 0.03 µg/mL |
| C[C@@H](n1cnc2cc(N3CCN(c4ccc(Cl)cc4)CC3)ccc2c1=O)[C@](O)(Cn1cncn1)c1ccc(F)cc1F | - | MIC | 60 strains | ≤0.03 µg/mL |
| CCCCCOc1ccc(-c2ccc(-c3ccc(C(=O)N[C@H]4CCCNC(=O)C5C[C@H](N)CN5C(=O)C(CCCCN)NC(=O)C(CCc5ccc(O)cc5)NC(=O)C5C[C@@H](O)CN5C(=O)C(C(C)O)NC4=O)cc3)cc2)cc1 | - | MIC | ATCC 10231 | 0.2 µg/mL |
| CC(C)(O)c1cn(-c2ccc(Cl)cc2)nn1 | broth dilution | MIC | URM 4817 | 128 µg/mL |
| CCCCCCCCOC[N+](C)(C)Cc1cc(N=Nc2ccc(Cl)cc2)ccc1O | - | MIC | - | 267 µM |
| CC(C)C(=N)CCC[C@H]1CO[C@@](Cn2cncn2)(c2ccc(F)cc2F)C1 | - | MIC | B02630 | >100 µg/mL |
| Cc1c(O)cccc1C(=O)N[C@@H](CSc1ccccc1)[C@H](O)CN1C[C@H]2CCCC[C@H]2C[C@H]1C(=O)NC(C)(C)C | - | MIC | I108 1 | >64 µg/mL |
| Clc1ccccc1COc1ccc(C(c2nccc3ccccc23)n2ccnc2)cc1.O=[N+]([O-])O | - | MIC90 | 17 strains | ≥256 µg/mL |
| C[N+](C)(COCCCC1CCCCC1)Cc1cc(N=Nc2ccc(Cl)cc2)ccc1O | - | MBC | - | 260 µM |
| C=CCN1C[C@H](OC[C@@]23C[C@@H]4[C@H](C)CC[C@H]4[C@@]4(C=O)C[C@@H]2CC(C(C)C)[C@@]34C(=O)O)O[C@H](C)C1 | - | MIC | CL-236 | 0.008 µg/mL |
| C[C@@H](N1CNc2cc(Cl)ccc2C1=O)[C@](O)(Cn1cncn1)c1ccc(F)cc1F | - | MIC | 76 strains | 0.15 µg/mL |
| Cc1c(S(=O)(=O)c2ccccc2)[n+](=O)c2ccccc2n1[O-] | - | MIC | Clinical isolate 2 | 31.25 µg/mL |
| C[C@@H](n1cnc2c(Br)cc(Br)cc2c1=O)[C@](O)(Cn1cncn1)c1ccc(F)cc1F | - | MIC | 406 strains | ≤0.03 µg/mL |
| O=[n+]1c(Sc2ccccc2)c(CBr)n([O-])c2ccccc21 | - | MIC | Clinical isolate 19 | 7.8 µg/mL |
| C[C@@H](n1cnc2cc(-[n+]3cnc[nH]3)ccc2c1=O)[C@](O)(Cn1cncn1)c1ccc(F)cc1F | - | MIC | 60 strains | 10 µg/mL |
| CCCCCCCCCCCCOc1ccc(-c2ccc(C(=O)N[C@H]3CCCNC(=O)C4C[C@H](N)CN4C(=O)C(C(C)O)NC(=O)C(CCc4ccc(O)cc4)NC(=O)C4C[C@@H](O)CN4C(=O)C(C(C)O)NC3=O)cc2)cc1 | - | MIC | ATCC 62376 | 0.2 µg/mL |
| CCCCCCCCCCCCCCCCCC(=O)NC1CC(O)C(O)NC(=O)C2C(O)C(C)CN2C(=O)C(C(C)O)NC(=O)C(C(O)C(O)c2ccc(O)cc2)NC(=O)C2CC(O)CN2C(=O)C(C(C)O)NC1=O | - | MIC | MY1028 | 0.25 µg/mL |
| Cc1ccc(-c2c3c(N)c4c(nc3nc3c2c(C)nn3-c2ccccc2)CCCC4)cc1 | broth dilution / absorbance | MIC50 | CCC 128 | 15.6 µg/mL |
| C[C@@H](N1CCN(Cc2cn(-c3ccc(F)cc3)c3ccccc23)CC1)[C@](O)(Cn1cncn1)c1ccc(F)cc1F | resazurin | MIC80 | ATCC 90028 | 0.125 µg/mL |
| C=CCc1ccc(O)c(OC)c1 | turbidity | MIC90 | 2883 | 500 µg/mL |
| C[C@@H](n1cnc2ccc(F)cc2c1=O)[C@](O)(Cn1cncn1)c1ccc(F)cc1F | - | MIC | 60 strains | 0.07 µg/mL |
| CC(C)C(=O)CCC[C@H]1CO[C@@](Cn2cncn2)(c2ccc(F)cc2F)C1 | - | MIC | IFO. 1385 | <0.1 µg/mL |
| OC(CN1CCN(c2ccc(OCc3ccncc3)cc2)CC1)(Cn1cncn1)c1ccc(F)cc1F | - | MIC80 | 304055 | 2 µg/mL |
| C=CCc1ccc(Cn2cc(CN3CCN([C@H](C)[C@](O)(Cn4cncn4)c4ccc(F)cc4F)CC3)c3ccccc32)cc1 | resazurin | MIC80 | ATCC MYA-1003 | 32 µg/mL |
| Clc1cccc(C(c2nccc3ccccc23)n2ccnc2)c1.O=[N+]([O-])O | - | Mean MIC | 44 strains | 143.2 µg/mL |
| CCCCCCCC(=O)N[C@H]1CC2C(=O)NCCC[C@H](NC(=O)c3ccc(-c4ccc(-c5ccc(OCCCCC)cc5)cc4)cc3)C(=O)NC(C(C)O)C(=O)N3C[C@H](O)CC3C(=O)NC(CCc3ccc(O)cc3)C(=O)NC(C(C)O)C(=O)N2C1 | - | MIC | ATCC 62376 | 50 µg/mL |
| Fc1ccccc1C(c1nccc2ccccc12)n1ccnc1 | - | MIC90 | 44 strains | >256 µg/mL |
| COc1ccc(-c2c3c(N)c4c(nc3nc3c2c(C)nn3-c2ccccc2)CCCCC4)cc1 | broth dilution / absorbance | MIC80 | ATCC 10231 | 125 µg/mL |
| CC(C)C(=O)CCC[C@H]1CO[C@@](Cn2cccc2)(c2ccc(F)cc2F)C1 | - | MIC | IFO. 1385 | >100 µg/mL |
| C[N+](C)(COC1CCCCCC1)Cc1cc(N=Nc2ccc(Cl)cc2)ccc1O | - | MIC | - | 68 µM |
| Cc1ccc(-c2c3c(N)c4c(nc3nc3c2c(C)nn3-c2ccccc2)CCCCC4)cc1 | broth dilution / absorbance | MIC80 | CCC 129 | 62.5 µg/mL |
| C[C@@H](n1cnc2ccc(Cl)cc2c1=O)[C@](O)(Cn1cncn1)c1ccc(F)cc1F | - | MIC | 60 strains | 0.07 µg/mL |
| Clc1ccccc1COc1ccc(C(c2ccc(-c3ccccc3)cc2)n2ccnc2)cc1.O=[N+]([O-])O | - | MIC90 | 17 strains | ≥256 µg/mL |
| CCCCCOc1ccc(-c2ccc(-c3ccc(C(=O)N[C@H]4CCCNC(=O)[C@@H]5C[C@H](NC)CN5C(=O)[C@H]([C@@H](C)O)NC(=O)[C@H](CCc5ccc(O)cc5)NC(=O)[C@@H]5C[C@@H](O)CN5C(=O)[C@H]([C@@H](C)O)NC4=O)cc3)cc2)cc1 | - | MIC | ATCC 10231 | 0.2 µg/mL |
| O[C@](Cn1cncn1)(Cn1cnc(/C=C/c2ccc(OCC(F)(F)C(F)F)cc2)n1)c1ccc(F)cc1F | - | MIC | Isolate 06-1 | 4 µg/mL |
| Cc1ccc(-c2c3c(N)c4c(nc3nc3c2c(C)nn3-c2ccccc2)CCC4)cc1 | broth dilution / absorbance | MIC50 | CCC 126 | 62.5 µg/mL |
| Clc1cccc(Cl)c1COc1ccc(C(c2ccc3ccccc3c2)n2ccnc2)cc1.O=[N+]([O-])O | - | MIC90 | 16 strains | ≥256 µg/mL |
| C[C@@H](N1CCN(Cc2cn(Cc3ccc(Cl)cc3)c3ccccc23)CC1)[C@](O)(Cn1cncn1)c1ccc(F)cc1F | resazurin | MIC80 | ATCC 90028 | 0.125 µg/mL |